A mixed list of measured activities; the numbers were collected in NIAID ChemDB.

Shared fields: toxicity to cultured cells; cell line: MT-4; read-out: CC50

Neighbouring rows are from separate reports. CCn: concentration that lowers growth or viability of the cells by n%. Blank or dashed fields: not listed here.

| structure | read by | value |
|---|---|---|
| Cn1cc(C(=O)O)c(=O)c2cc(N)c(N3CCN(c4nc5ccccc5o4)CC3)cc21 | MTT | 0.098 µg/mL |
| Clc1ccc2nnc3ccnn3c2c1 |  | >200 µM |
| CCC(CCSC)OC(=O)[C@@H](N)c1ccccc1-c1c[nH]c2ccccc12 | MTT | 34 µM |
| CC(C)CCC[C@@H](C)[C@H]1CC[C@H]2[C@@H]3CC[C@H]4C[C@@H](CCC=C(c5cc(Cl)c(O)c(C(=O)O)c5)c5cc(Cl)c(O)c(C(=O)O)c5)CC[C@]4(C)[C@H]3CC[C@]12C |  | >125 µg/mL |
| Cc1cccc(CN2C(C)C(=O)Nc3ccc(Cl)cc3S2(=O)=O)c1 | MTT | >200 µM |
| C#CCOCn1c(Cc2cccc(C(F)(F)F)c2)c(CC)c(=O)[nH]c1=O |  | 68 µM |
| CC(C)c1c(Cc2cccc3ccccc23)n(COCCO)c(=O)[nH]c1=O |  | 53.2 µM |
| O=C1CSC(=Nc2cccc(C(F)(F)F)c2)N1c1ccc(Cl)c(Cl)c1 | MTT / absorbance | >100 µM |
| CC1=CN([C@H]2CS[C@@H](CO)O2)S(=O)(=O)NC1=O |  | >100 µg/mL |
| N#C[C@]1(CO)O[C@@H](n2cnc3c(=O)[nH]c(N)nc32)C[C@@H]1O | absorbance | 2.3 µM |
| CC1=C[C@@H]([C@H]2Oc3cc4c(c5c3[C@H](CC5)[C@@H]2C)CC[C@H]2C(C)(C)O[C@@H]3CC(=O)O[C@@]32C4)OC1=O | MTT | ~120 µg/mL |
| COc1cc2c(c3oc(=O)c(CBr)c(C)c13)[C@@H](OC(=O)C13CCC(C)(C(=O)O1)C3(C)C)[C@@H](OC(=O)C13CCC(C)(C(=O)O1)C3(C)C)C(C)(C)O2 | MTT | >65.88 µM |
| CCN(CC)CCOc1ccc(NC(=O)COc2ccccc2C(=O)c2ccc(OC)cc2)cc1 |  | 8.83 µM |
| Nc1ccn([C@@H]2CC[C@H](CO)O2)c(=O)n1 |  | 473 µM |
| CCOCn1c(Cc2c(F)ccc(F)c2F)c(CC)c(=O)[nH]c1=O |  | >100 µM |
| Cc1ccccc1CN1C(C)C(=O)Nc2ccc(Cl)cc2S1(=O)=O | MTT | >200 µM |
| CCOCn1c(Cc2cccc(F)c2)c(C(C)C)c(=O)[nH]c1=O |  | >100 µM |
| CCCC[C@H](C)OC(=O)[C@@H](N)c1ccccc1-c1c[nH]c2ccccc12 | MTT | 17 µM |
| CC(C)[C@@H](NC(=O)c1ccccc1)C(=O)N/N=C/c1c(F)cccc1F | MTT | >348 µM |
| COc1ccc(CSc2nc(C(=O)c3ccc(Br)cc3)c(C)c(=O)[nH]2)cc1 | MTT | 201 µM |
| N#Cc1cnn2c1n[n+]([O-])c1ccc(Cl)cc12 |  | 25 µM |
| CCOCn1c(Cc2cccc(F)c2)c(CC)c(=O)[nH]c1=O |  | >100 µM |
| O=[N+]([O-])c1ccc2c(c1)[n+]([O-])nc1c(Br)cnn12 |  | 200 µM |
| Nc1nc(=O)n([C@H]2CC[C@@H](CO)O2)cc1F |  | >436 µM |
| CCc1c(Cc2ccc3ccccc3c2)n(COC)c(=O)[nH]c1=O |  | 97.8 µM |
| Cc1ccc(-c2c([C@H](OC(C)(C)C)C(=O)O)c(C)nc3ccccc23)cc1C |  | 76 µM |
| CN(C)c1nc(Cl)cc(C(C#N)c2c(F)cccc2F)n1 | MTT | 80 µM |
| O=[N+]([O-])c1ccc(Nc2nnnn2-c2cccc(C(F)(F)F)c2)cc1 | MTT / absorbance | 3.2 µM |
| C=C1C(=O)O[C@H]2C[C@H](C)[C@@H]3CC[C@@](C)(O)[C@@H]3C[C@H]12 | MTT | 0.5 µg/mL |
| Cc1c(C[N+](=O)[O-])c(=O)oc2c3c(ccc12)OC(C)(C)[C@H](OC(=O)C12CCC(C)(C(=O)O1)C2(C)C)[C@@H]3OC(=O)C12CCC(C)(C(=O)O1)C2(C)C | MTT | >71.94 µM |
| COc1nc(N(C)C)nc(Cc2c(F)cccc2F)c1C | MTT | 67 µM |
| Cc1cn([C@H]2C[C@H](N=[N+]=[N-])[C@@H](CO)O2)c(=O)[nH]c1=O | MTT | >187 µM |
| COc1ccc(CSc2nc(C(=O)c3cccc(Br)c3)c(C)c(=O)[nH]2)cc1 | MTT | 252 µM |
| Nc1nc2c(ncn2[C@@H]2O[C@H](CO)[C@H]2CO)c(=O)[nH]1 |  | 210 µg/mL |
| CCCc1c(Cc2cccc3ccccc23)n(COCc2ccccc2)c(=O)[nH]c1=O |  | 30.71 µM |
| NC1=NS(=O)(=O)N([C@H]2CS[C@@H](CO)O2)C=C1 |  | >100 µg/mL |
| CN(CC1c2nc(C(=O)NCc3ccc(F)cc3)c(O)c(=O)n2CCN1C)C(=O)c1ccccn1 | microscopy | >10 µM |
| CC(C)[C@H](NC(=O)c1ccccc1)C(=O)N/N=C/c1ccccc1F | MTT | >366 µM |
| Cc1c(Cl)nc(N(C)C)nc1C(C#N)c1c(F)cccc1F | MTT | 34 µM |
| C#CCOCn1c(Cc2cc(F)ccc2F)c(CC)c(=O)[nH]c1=O |  | >100 µM |
| FC(F)(F)c1cccc(-n2nnnc2Nc2ccc(Cl)cc2)c1 | MTT / absorbance | 48 µM |
| CC(C)CN(C[C@@H](O)[C@H](Cc1cc(F)cc(F)c1)NC(=O)O[C@H]1C2COC3OCC1C3C2)S(=O)(=O)c1ccc2nc(NC3CC3)sc2c1 |  | 32 µM |
| Cc1cn([C@@H]2O[C@H](CO)C[C@@H]2F)c(=O)nc1N |  | >500 µM |
| COCC[C@H](C)OC(=O)[C@@H](N)c1ccccc1-c1c[nH]c2ccccc12 | MTT | >50 µM |
| Fc1ccccc1Nc1nnnn1-c1cccc(C(F)(F)F)c1 | MTT / absorbance | 50 µM |
| CC[C@]1(CO)O[C@@H](n2cnc3c(N)nc(N)nc32)C[C@@H]1O | absorbance | 33.1 µM |
| CC1C(=O)Nc2ccc(Cl)cc2S(=O)(=O)N1CC=Cc1ccccc1 | MTT | >200 µM |
| CN(C)C(=O)C(=O)N(C)CC1c2nc(C(=O)NCc3ccc(F)cc3)c(O)c(=O)n2CCN1C | microscopy | >10 µM |
| O=c1[nH]c(=O)c2ncn([C@@H]3O[C@H](CO)[C@H]3CO)c2[nH]1 |  | >300 µg/mL |
| COc1cc2c(c3oc(=O)c(CC#N)c(C)c13)[C@@H](OC(=O)C13CCC(C)(C(=O)O1)C3(C)C)[C@@H](OC(=O)C13CCC(C)(C(=O)O1)C3(C)C)C(C)(C)O2 | MTT | >70.92 µM |
| CSc1nc(=O)n([C@H]2C[C@H](N=[N+]=[N-])[C@@H](CO)O2)cc1C |  | >100 µM |
| CC(C)CN(C[C@@H](O)[C@H](Cc1ccccc1)NC(=O)O[C@H]1C2COC3OCC1C3C2)S(=O)(=O)c1ccc2nc(NC3CC3)sc2c1 |  | 23 µM |
| O=C1C=CN([C@H]2CS[C@@H](CO)O2)S(=O)(=O)N1 |  | >100 µg/mL |
| CC(C)[C@H](NC(=O)c1ccccc1)C(=O)N/N=C/c1c(F)cccc1Cl | MTT | >332 µM |
| CCOCn1c(Cc2cc(C)cc(C)c2)c(C(C)C)c(=O)[nH]c1=O |  | 43 µM |
| Cn1c([S-])nc2nc(-c3ccccc3)c(-c3ccccc3)nc2c1=O.[Cl][Pt+2][Cl] |  | 2.23 µg/mL |
| CCOC(=O)c1nnsc1NCc1ccccc1N | MTT | >290 µM |
| CC[C@@]1(O)C[C@H](O[C@H]2C[C@H](N(C)C)[C@H](O[C@H]3C[C@H](O)[C@H](O[C@H]4CCC(=O)[C@H](C)O4)[C@H](C)O3)[C@H](C)O2)c2c(cc3c(c2O)C(=O)c2c(O)cccc2C3=O)[C@H]1C(=O)OC |  | <0.1 µg/mL |
| Nc1ncn([C@@H]2CC[C@H](CO)O2)c(=O)n1 |  | >471 µM |
| CSCC[C@H](C)OC(=O)[C@@H](NC(=O)CSC)c1ccccc1-c1c[nH]c2ccccc12 | MTT | 30 µM |
| C=C[C@]1(CO)O[C@@H](n2cnc3c(=O)[nH]c(N)nc32)C[C@@H]1O | absorbance | 24.7 µM |
| [N-]=[N+]=N[C@H]1[C@@H](F)[C@H](n2ccc(=O)[nH]c2=O)O[C@@H]1CO |  | 46 µM |
| CCOC(=O)c1cnn2c1nnc1ccc(Cl)cc12 |  | 5.2 µM |
| COc1ccc(CSc2nc(C(=O)c3cccc(Cl)c3)c(C)c(=O)[nH]2)cc1 | MTT | >151 µM |
| CC1(C)c2nc(C(=O)NCc3ccc(F)cc3)c(O)c(=O)n2CN1Cc1cccnc1 | microscopy | >1 µM |
| COc1ccc(Nc2nnnn2-c2cccc(C(F)(F)F)c2)cc1 | MTT / absorbance | 72 µM |
| COc1nc(N(C)C)nc(C(=O)c2c(F)cccc2F)c1C | MTT | 20 µM |
| CN(C)C(=O)CN1CCn2c(nc(C(=O)NCc3ccc(F)cc3)c(O)c2=O)C1(C)C | microscopy | >10 µM |
| O=C1CNS(=O)(=O)c2cc(Cl)cc([N+](=O)[O-])c2N1 | MTT | >200 µM |
| Nc1ccn([C@H]2CC[C@@H](CO)O2)c(=O)n1 |  | 47.3 µM |
| CC(=O)NC1CN(C)CCn2c1nc(C(=O)NCc1ccc(F)cc1)c(O)c2=O | microscopy | >1 µM |
| Nc1ccn([C@@H]2O[C@H](CO)[C@@H](F)[C@@H]2F)c(=O)n1 |  | >500 µM |
| CCOCn1c(Cc2cccc3ccccc23)c(C)c(=O)[nH]c1=O |  | 43.3 µM |

For reference, 6 entries again:

| structure | read by | value |
|---|---|---|
| C#CCOCn1c(Cc2cc(F)ccc2F)c(CC)c(=O)[nH]c1=O |  | >100 µM |
| CC1C(=O)Nc2ccc(Cl)cc2S(=O)(=O)N1CC=Cc1ccccc1 | MTT | >200 µM |
| Nc1ccn([C@@H]2O[C@H](CO)[C@@H](F)[C@@H]2F)c(=O)n1 |  | >500 µM |
| CC(C)CN(C[C@@H](O)[C@H](Cc1cc(F)cc(F)c1)NC(=O)O[C@H]1C2COC3OCC1C3C2)S(=O)(=O)c1ccc2nc(NC3CC3)sc2c1 |  | 32 µM |
| O=c1[nH]c(=O)c2ncn([C@@H]3O[C@H](CO)[C@H]3CO)c2[nH]1 |  | >300 µg/mL |
| CSc1nc(=O)n([C@H]2C[C@H](N=[N+]=[N-])[C@@H](CO)O2)cc1C |  | >100 µM |